These are literature values, as cited in publication PMC4913920.

For orientation: Kd means the equilibrium constant for the complex coming apart.

This data set concerns the target HIV-1 capsid protein CA (Human immunodeficiency virus 1) (UniProt O93182).

Cyclophilin A (from UniProt P62937): the Kd is 11.5 µM.
